{"source": "paper PMC9312377", "molecular_target": "recombinant A(H1N1)pdm09 PAN WT (Influenza A virus, UniProt C3W5S0, DEL51-57/DEL61-72/E59G)", "assay": "Modified thermofluor assay, BXA-rPAN thermal stabilization", "settings": "for SYPRO Orange signal: 37uM BXA", "note": "“And” between values parts separate entries of the source, which are not always exact repeats. Identical values can stand only once.", "data": [{"smiles": "O=C1c2c(O)c(=O)ccn2N([C@@H]2c3ccccc3SCc3c2ccc(F)c3F)[C@@H]2COCCN12", "values": [{"measurement": "SYPRO Orange signal", "setting": "30 °C", "value": "1753.75 RFU and 1760.28 RFU and 2022.58 RFU"}, {"measurement": "SYPRO Orange signal", "setting": "31 °C", "value": "2371.15 RFU and 1897.11 RFU and 2285.51 RFU"}, {"measurement": "SYPRO Orange signal", "setting": "32 °C", "value": "2440.89 RFU and 1837.11 RFU and 2903.6 RFU"}, {"measurement": "SYPRO Orange signal", "setting": "33 °C", "value": "2436.67 RFU and 1503.86 RFU and 2554.78 RFU"}, {"measurement": "SYPRO Orange signal", "setting": "34 °C", "value": "3025.03 RFU and 2118.09 RFU and 2577.12 RFU"}, {"measurement": "SYPRO Orange signal", "setting": "35 °C", "value": "2642.63 RFU and 1783.19 RFU and 2860.1 RFU"}, {"measurement": "SYPRO Orange signal", "setting": "36 °C", "value": "2913.9 RFU and 2082.18 RFU and 2803.49 RFU"}, {"measurement": "SYPRO Orange signal", "setting": "37 °C", "value": "3236.84 RFU and 2104.5 RFU and 2929.48 RFU"}, {"measurement": "SYPRO Orange signal", "setting": "38 °C", "value": "2786.33 RFU and 2017.83 RFU and 2405.79 RFU"}, {"measurement": "SYPRO Orange signal", "setting": "39 °C", "value": "3012.32 RFU and 2483.05 RFU and 2456.19 RFU"}, {"measurement": "SYPRO Orange signal", "setting": "40 °C", "value": "2840.78 RFU and 2236.17 RFU and 2409.43 RFU"}, {"measurement": "SYPRO Orange signal", "setting": "41 °C", "value": "3207.14 RFU and 2468.41 RFU and 2503.98 RFU"}, {"measurement": "SYPRO Orange signal", "setting": "42 °C", "value": "2897.59 RFU and 2725.24 RFU and 2700.57 RFU"}, {"measurement": "SYPRO Orange signal", "setting": "43 °C", "value": "2520.24 RFU and 2449.69 RFU and 2751.22 RFU"}, {"measurement": "SYPRO Orange signal", "setting": "44 °C", "value": "3070.47 RFU and 2413.57 RFU and 2637.47 RFU"}, {"measurement": "SYPRO Orange signal", "setting": "45 °C", "value": "3181.83 RFU and 2425.89 RFU and 2692.02 RFU"}, {"measurement": "SYPRO Orange signal", "setting": "46 °C", "value": "3084.92 RFU and 2556.84 RFU and 2828.37 RFU"}, {"measurement": "SYPRO Orange signal", "setting": "47 °C", "value": "2959.11 RFU and 2257.08 RFU and 2506.52 RFU"}, {"measurement": "SYPRO Orange signal", "setting": "48 °C", "value": "2963.45 RFU and 2232.34 RFU and 2811.86 RFU"}, {"measurement": "SYPRO Orange signal", "setting": "49 °C", "value": "2781.89 RFU and 2722.39 RFU and 2596.53 RFU"}, {"measurement": "SYPRO Orange signal", "setting": "50 °C", "value": "2678.55 RFU and 2494.79 RFU and 2800.46 RFU"}, {"measurement": "SYPRO Orange signal", "setting": "51 °C", "value": "2761.09 RFU and 2070.69 RFU and 2605.89 RFU"}, {"measurement": "SYPRO Orange signal", "setting": "52 °C", "value": "2685.52 RFU and 2125.76 RFU and 2755.56 RFU"}, {"measurement": "SYPRO Orange signal", "setting": "53 °C", "value": "2774.4 RFU and 2219.89 RFU and 2372.74 RFU"}, {"measurement": "SYPRO Orange signal", "setting": "54 °C", "value": "2307.32 RFU and 2130.92 RFU and 2680.32 RFU"}, {"measurement": "SYPRO Orange signal", "setting": "55 °C", "value": "2191.95 RFU and 2444.53 RFU and 2693.28 RFU"}, {"measurement": "SYPRO Orange signal", "setting": "56 °C", "value": "2466.96 RFU and 2430.89 RFU and 2675.52 RFU"}, {"measurement": "SYPRO Orange signal", "setting": "57 °C", "value": "2397.83 RFU and 1832.31 RFU and 2604.85 RFU"}, {"measurement": "SYPRO Orange signal", "setting": "58 °C", "value": "2708.56 RFU and 2251.8 RFU and 3081.07 RFU"}, {"measurement": "SYPRO Orange signal", "setting": "59 °C", "value": "3014.84 RFU and 2388.34 RFU and 3415.04 RFU"}, {"measurement": "SYPRO Orange signal", "setting": "60 °C", "value": "3117.69 RFU and 2758.07 RFU and 3511.11 RFU"}, {"measurement": "SYPRO Orange signal", "setting": "61 °C", "value": "2800.76 RFU and 2508.13 RFU and 3306.67 RFU"}, {"measurement": "SYPRO Orange signal", "setting": "62 °C", "value": "3214.24 RFU and 3013.25 RFU and 3808.58 RFU"}, {"measurement": "SYPRO Orange signal", "setting": "63 °C", "value": "3249.1 RFU and 2839.07 RFU and 3696.82 RFU"}, {"measurement": "SYPRO Orange signal", "setting": "64 °C", "value": "3620.74 RFU and 3021.69 RFU and 4263.1 RFU"}, {"measurement": "SYPRO Orange signal", "setting": "65 °C", "value": "3734.94 RFU and 3214.44 RFU and 4629.39 RFU"}, {"measurement": "SYPRO Orange signal", "setting": "66 °C", "value": "4138.49 RFU and 3406.16 RFU and 4816.32 RFU"}, {"measurement": "Tm (°C) with BXA", "setting": "A(H1N1)pdm09 PAN WT 2 μM, BXA 37 μM", "value": "80 °C and 80.3 ± 0.1 °C and 80.3 °C"}, {"measurement": "ΔTm (°C)", "setting": "A(H1N1)pdm09 PAN WT, DMSO vs BXA 37 μM", "value": "25 °C and 25.3 ± 0.2 °C"}, {"measurement": "SYPRO Orange signal", "setting": "Panel A, WT, 67 °C", "value": "4647.68 RFU and 4402.97 RFU and 5149.5 RFU"}, {"measurement": "SYPRO Orange signal", "setting": "Panel A, WT, 68 °C", "value": "4527.01 RFU and 4382.62 RFU and 5531.66 RFU"}, {"measurement": "SYPRO Orange signal", "setting": "Panel A, WT, 69 °C", "value": "5116.8 RFU and 4634.86 RFU and 6091.6 RFU"}, {"measurement": "SYPRO Orange signal", "setting": "Panel A, WT, 70 °C", "value": "5420.44 RFU and 5215.61 RFU and 6274.77 RFU"}, {"measurement": "SYPRO Orange signal", "setting": "Panel A, WT, 71 °C", "value": "5273.55 RFU and 5760.03 RFU and 6306.18 RFU"}, {"measurement": "SYPRO Orange signal", "setting": "Panel A, WT, 72 °C", "value": "5577.44 RFU and 5512.91 RFU and 6490.41 RFU"}, {"measurement": "SYPRO Orange signal", "setting": "Panel A, WT, 73 °C", "value": "6396.49 RFU and 6100.77 RFU and 7025.81 RFU"}, {"measurement": "SYPRO Orange signal", "setting": "Panel A, WT, 74 °C", "value": "6997.14 RFU and 7090.59 RFU and 7843.32 RFU"}, {"measurement": "SYPRO Orange signal", "setting": "Panel A, WT, 75 °C", "value": "8250.92 RFU and 8482.91 RFU and 9078.46 RFU"}, {"measurement": "SYPRO Orange signal", "setting": "Panel A, WT, 76 °C", "value": "10981.3 RFU and 11343.3 RFU and 12382.8 RFU"}, {"measurement": "SYPRO Orange signal", "setting": "Panel A, WT, 77 °C", "value": "15582.4 RFU and 15551.3 RFU and 16436.3 RFU"}, {"measurement": "SYPRO Orange signal", "setting": "Panel A, WT, 78 °C", "value": "22928.9 RFU and 22799.3 RFU and 24313 RFU"}, {"measurement": "SYPRO Orange signal", "setting": "Panel A, WT, 79 °C", "value": "35114.6 RFU and 34674.5 RFU and 36154.3 RFU"}, {"measurement": "SYPRO Orange signal", "setting": "Panel A, WT, 80 °C", "value": "54814 RFU and 52955.1 RFU and 55956.1 RFU"}, {"measurement": "SYPRO Orange signal", "setting": "Panel A, WT, 81 °C", "value": "84030 RFU and 81254.2 RFU and 85478.8 RFU"}, {"measurement": "SYPRO Orange signal", "setting": "Panel A, WT, 82 °C", "value": "120714 RFU and 116787 RFU and 123501 RFU"}, {"measurement": "SYPRO Orange signal", "setting": "Panel A, WT, 83 °C", "value": "152752 RFU and 149288 RFU and 158637 RFU"}, {"measurement": "SYPRO Orange signal", "setting": "Panel A, WT, 84 °C", "value": "170367 RFU and 168514 RFU and 179263 RFU"}, {"measurement": "SYPRO Orange signal", "setting": "Panel A, WT, 85 °C", "value": "174240 RFU and 172586 RFU and 183988 RFU"}, {"measurement": "SYPRO Orange signal", "setting": "Panel A, WT, 86 °C", "value": "171802 RFU and 170329 RFU and 181647 RFU"}, {"measurement": "SYPRO Orange signal", "setting": "Panel A, WT, 87 °C", "value": "168135 RFU and 167081 RFU and 177962 RFU"}, {"measurement": "SYPRO Orange signal", "setting": "Panel A, WT, 88 °C", "value": "163762 RFU and 163902 RFU and 173226 RFU"}, {"measurement": "SYPRO Orange signal", "setting": "Panel A, WT, 89 °C", "value": "159543 RFU and 159134 RFU and 167979 RFU"}, {"measurement": "SYPRO Orange signal", "setting": "Panel A, WT, 90 °C", "value": "154890 RFU and 154894 RFU and 163580 RFU"}, {"measurement": "SYPRO Orange signal", "setting": "Panel A, WT, 91 °C", "value": "150308 RFU and 150229 RFU and 157461 RFU"}, {"measurement": "SYPRO Orange signal", "setting": "Panel A, WT, 92 °C", "value": "145884 RFU and 145939 RFU and 150858 RFU"}, {"measurement": "SYPRO Orange signal", "setting": "Panel A, WT, 93 °C", "value": "141347 RFU and 141563 RFU and 145119 RFU"}]}]}
